How the values were obtained:
[1] = tested on: WT virus (influenza A/WSN/33); assay: In vivo dose response of NAIs against WT virus in mice; conditions: for IC90 dose: WT virus, OS orally, ZA intranasally, PE intramuscularly; for inhibition of WT virus replication: at IC90 dose
[2] = target: NA of influenza A/WSN/33 (H1N1) virus, WT (Influenza A virus, UniProt P03470); assay: Neuraminidase activity assay (MUNANA), WT recombinant virus; conditions: read-out: IC50 (mean ± SD), three independent experiments
[3] = tested on: WT NA recombinant protein; assay: Isothermal titration calorimetry, WT NA; conditions: ITC

Sequences of proteins named here, by UniProt entry; tags and fusion partners are left off. A change or cut given only in a name is not applied to a line headed by its entry.
UniProt P03470: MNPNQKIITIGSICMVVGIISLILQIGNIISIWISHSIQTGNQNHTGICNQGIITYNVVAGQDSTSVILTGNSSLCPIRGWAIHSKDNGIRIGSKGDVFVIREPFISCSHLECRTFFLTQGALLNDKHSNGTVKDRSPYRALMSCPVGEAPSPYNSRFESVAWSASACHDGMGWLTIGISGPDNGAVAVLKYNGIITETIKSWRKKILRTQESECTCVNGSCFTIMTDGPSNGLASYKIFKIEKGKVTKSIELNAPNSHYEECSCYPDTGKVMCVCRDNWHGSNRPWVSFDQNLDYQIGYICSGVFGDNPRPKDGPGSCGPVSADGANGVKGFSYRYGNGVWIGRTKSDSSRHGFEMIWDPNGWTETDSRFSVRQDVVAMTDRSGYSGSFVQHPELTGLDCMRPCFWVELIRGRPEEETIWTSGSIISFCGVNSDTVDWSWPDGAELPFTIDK

Compound	IC90 dose [1]	inhibition of WT virus replication [1]	IC50 [2]	-TΔS [3]	ΔG [3]	ΔH [3]	Kd ([3]; 25°C, 20 mM MES pH 6.5, 200 mM NaCl)
peramivir	1 mg/kg/day	~ 10 fold	0.01 nM	-8.27 kcal/mol	-9.3 kcal/mol	-1.03 ± 0.145 kcal/mol	152 nM
CCOC(=O)C1=C[C@@H](OC(CC)CC)[C@H](NC(C)=O)[C@@H](N)C1	1 mg/kg/day	~ 10 fold	–	–	–	–	–
CC(=O)N[C@H]1[C@H]([C@H](O)[C@H](O)CO)OC(C(=O)O)=C[C@@H]1N=C(N)N	0.1 mg/kg/day	~ 10 fold	–	–	–	–	–
